Measurements published in patent US20220356229A1 (published 2022).

Columns and labels:
[1] = target: SARS-CoV-2 Spike NTD (SARS-CoV-2, UniProt P0DTC2 16-328); assay: multiplexed bead assay, flow cytometry, […]
[2] = target: SARS-CoV-2 Spike (S) protein, wild type, full length (SARS-CoV-2, UniProt P0DTC2 14-1273); assay: flow cytometry, CHO cells expressing full-length Spike
[3] = target: T1, SARS-CoV Spike protein (SARS-CoV, UniProt P59594 14-1190); assay: multiplexed bead assay, flow cytometry
[4] = target: T1, SARS-CoV Spike protein; assay: multiplexed bead assay, flow cytometry; remark: listed apart in the source
[5] = target: T2, SARS-CoV Spike protein (SARS-CoV, UniProt P59594 14-1190); assay: multiplexed bead assay, flow cytometry; remark: listed apart in the source
[6] = target: T2, SARS-CoV Spike protein; assay: multiplexed bead assay, flow cytometry; remark: listed apart in the source
[7] = target: SARS-CoV-2 WT Spike protein on renilla luciferase reporter viral particles (SARS-CoV-2, UniProt P0DTC2 14-1273); assay: cell-based or functional assay
[8] = target: T3, SARS-CoV Spike protein (SARS-CoV, UniProt P59594 14-1190)
[9] = target: T3, SARS-CoV Spike protein; assay: multiplexed bead assay, flow cytometry, SARS-CoV Spike on beads
[10] = target: Spike protein of authentic SARS-CoV-2/MT020880.1 (live virus) (SARS-CoV-2, UniProt P0DTC2 14-1273); assay: cell-based or functional assay

B1: antibody 851 (antibody)
heavy: not shown
light: NFMLTQPHSVSESPGKTVIISCTRSIGSIASNYVQWYQQRPGSAPTIVVFEDNERPSGVPDRFSGSIDRSSNSASLTISGLKTEDEADYYCQSYDGSSELVFGGGTKLTVLGQPKAAPSVTLFPPSSEELQANKATLVCLISDFYPGAVTVAWKADSSPVKAGVETTTPSKQSNNKYAASSYLSLTPEQWKSHRSYSCQVTHEGSTVEKTVAPTECS
[1]
  bead assay binding signal: 174

B2: antibody 545 (antibody, V domains shown)
VH: QVQLVQSGSELKKPGASVKVSCKASGYTFTSYAMNWVRQAPGQGLEWMGWINTNTGNPTYAQGFTGRFVFSLDTSVSTAYLQISVLKAEDTGVYYCARDHELPNSSSWFGHFEYWGQGTLVTVSS
VL: SYELTQPPSVSVSPGQTARITCSGDALPKQYAYWYQQKAGQAPVLVIYKDSERRSGIPERFSGSSSGTTVTLTISGVQAEDEADYYCQSADSSGTSVVFGGGTKLTVL
[2]
  median fluorescence, fold over isotype control: 20.6 fold over isotype

B3: antibody 440 (antibody, V domains shown)
VH: EVQLLESGGGLVQPGGSLRLSCAASGFTFSSYAMSWVRQAPGKGLEWVSAISGSGVNTYHADSVKGRFTISRDNSRNTLYLQMSSLTAEDTAAYYCAKDFEAASGAYYYYGMDVWGQGTTVTVSS
VL: SYELTQPPSVSVSPGQTARITCSGDALPDQYAYWYQQKPGQAPVVVIYKDRERPSGIPERFSGSNSGTTVTLTISGVQAEDEADYYCQSADSSATYVVFGGGTKLTVL
[3]
  bead binding signal (fold over isotype control): 1.37
[4]
  bead binding signal (fold over isotype control): 1.01

B4: antibody 338 (antibody, V domains shown)
VH: QVQLQESGPGLVKPSETLSLTCAVSGYSISSDYYWGWIRQPPGKGLEWIGSIYHSGSTYYNPSLKSRVTISIDTSKNQFSLKLSSVTAADTAVYYCARDPGNYDILTGIFDYWGQGTLVTVSS
VL: QSALTQPASVSGSPGQSITISCTGTSSDVGVYNYVSWYQQHPGKAPKLMIYDVTNRPSGVSNRFSGSKSGNTASLTISGLQAEDEADYYCSSYTSSSTLAVYVFGTGTKVTVL
[5]
  bead binding signal (median fluorescence, fold over isotype control): 84.8 fold over isotype control
[6]
  bead binding signal (median fluorescence, fold over isotype control): 36.6 fold over isotype control

B5: antibody 469 (antibody, V domains shown)
VH: QVQLVESGGGVVQPGRSLRLSCAASGFTFSSYGMHWVRQAPGKGLEWVAVIWYDGSNKYYADSVKGRFTISRDNSKNTLYLQMNSLRAEDTAVYYCARDLLSVGWSFDYWGQGTLVTVSS
VL: not shown
[3]
  bead binding signal (fold over isotype control): 1.43
[4]
  bead binding signal (fold over isotype control): 1

B6: anti-SARS-CoV-2 antibody 923 (antibody, V domains shown)
VH: EVQLVESGGGVVRPGGSLRLSCAASGFIFDDYDMTWVRQAPGKGLEWVSGISWNGGNTGYADSVKGRFTISRDNAKNSLYLQMNSLRAEDTALYHCAVIMSPIPRYSGYDWAGGAFDIWGQGTMVTVSS
VL: SSELTQDPAVSVALGQTVRITCQGDSLRSYYASWYQQKPGQVPILVIYDKNNRPSGIPDRFSGSSSGNTASLTITGAQAEDEADYYCNSRDSSGNAVVFGGGTKLTVLG
[7]
  IC50 WT (µg/mL); pseudovirus neutralization, luciferase: 0.155 µg/mL

B7: antibody 336 (antibody, V domains shown)
VH: QVQLVESGGGVVQPGRSLRLSCAASGFTFSSYAMHWVRQAPGKGLEWVAVISYDGSNKYYADSVKGRFTISRDNSKNTLYLQMNSLRAEDTAVYYCARAQTDYYDSSGWFDYWGQGTLVTVSS
VL: SYELTQPPSVSVSPGQTARITCSGDALPKQYAYWYQQKPGQAPVLVIYKDSERPSGIPERFSGSSSGTTVTLTISGVQAEDEADYYCQSADSSGTPHWVFGGGTKLTVL
[5]
  bead binding signal (median fluorescence, fold over isotype control): 1.09 fold over isotype control
[6]
  bead binding signal (median fluorescence, fold over isotype control): 1.08 fold over isotype control

B8: antibody 458 (antibody, V domains shown)
VH: QVQLVESGGGVVQPGRSLRLSCAASEFTFATYAMHWVRQAPGKGLEWVALISQDGSNKHYADSVKGRFTISRDNSKNTLYLQMNSLRAEGTAIYYCARESLEAAGPPFDYWGQGTLVTVSS
VL: SYELTQPPSVSVSPGQTATIICSGDKLGEKYASWYQQKPGQSPALVIYQDRKRPSGIPERFSGSNSGNTATLTISGTQAMDEADYYCQAWDSSNSVVFGGGTKLTVP
[3]
  bead binding signal (fold over isotype control): 1.03
[4]
  bead binding signal (fold over isotype control): 1.01

B9: anti-coronavirus antibody 554 (antibody, V domains shown)
VH: QVQLVESGGGVVQPGRSLRLSCAASGFTFSSYAMHWVRQAPGKGLEWVAVISYDGSNKYYADSVKGRFTISRDNSKNTLYLQMNSLRAEDTAVYYCARPQGGNYYYYGMDVWGQGTTVTVSS
VL: DIQMTQSPSSVSASVGDRVTITCRASQGISSWLAWYQQKPGKAPKLLIYAASSLQSGVPSRFSGSGSGTDFTLTISSLQPEDFATYYCQQANSFPLTFGGGTKVEIK
[8]
  binding signal (fold over isotype control): 28 fold over isotype control
[9]
  binding signal (fold over isotype control): 8.45 fold over isotype control

B10: anti-coronavirus antibody 568 (antibody, V domains shown)
VH: EVQLVESGGVVVQPGGSLRLSCAASGFTFDDYAMHWVRQAPGKGLEWVSLISWDGGSTYYADSVKGRFTISRDNSKNSLYLQMNSLRAEDTALYYCAKDIGYSSTTTEVGWFDPWGQGTLVTVSS
VL: DIQMTQSPSSVSASVGDRVTITCRASQGISSWLAWYQQKPGKAPKLLIYAASSLQSGVPSRFSGSGSGTDFTLTISSLQPEDFATYYCQQANSFPLTFGGGTKVEIK
[8]
  binding signal (fold over isotype control): 0.99 fold over isotype control
[9]
  binding signal (fold over isotype control): 1.07 fold over isotype control

B11: anti-SARS-CoV-2 antibody 851 (antibody, V domains shown)
VH: QITLKESGPTLVKPTQTLTLTCTFSGFSLSTNGVGMGWIRQPPGKALEWLALIYWDDDQFYSPSLKSRLTITRDTSKNQVVLTMTNMDPVDTATYYCAQAFYESFGFYSWGQGTLVTVSS
VL: NFMLTQPHSVSESPGKTVIISCTRSIGSIASNYVQWYQQRPGSAPTIVVFEDNERPSGVPDRFSGSIDRSSNSASLTISGLKTEDEADYYCQSYDGSSELVFGGGTKLTVLG
[10]
  IC50 (ng/mL), immunofluorescence neutralization assay: 208 ng/mL

B12: anti-SARS-CoV-2 antibody 1444 (antibody, V domains shown)
VH: QVQLVQSGAEVKKPGASVKVSCKASGYTFTAYYMHWVRQAPGQGLEWMGWINPNSDDTNYAQKFQGRVTMTRDTSISTAYMELSRLRSDDTAVYYCAREEGVFTIGDRYFDLWGRGTLVSVSS
VL: QTVVTQEPSFSVSPGGTVTLTCGLSSGSVSTSYYPSWYQQTPGQAPRTLIYNTNTRSSGVPDRFSGSILGNKAALTITGAQADDESDYYCVLYMGSGIWVFGGGTKLTVLG
[7]
  IC50 WT (µg/mL); pseudovirus neutralization, luciferase: 0.115 µg/mL

B13: antibody 1444 (antibody, V domains shown)
VH: QVQLVQSGAEVKKPGASVKVSCKASGYTFTAYYMHWVRQAPGQGLEWMGWINPNSDDTNYAQKFQGRVTMTRDTSISTAYMELSRLRSDDTAVYYCAREEGVFTIGDRYFDLWGRGTLVSVSS
VL: QTVVTQEPSFSVSPGGTVTLTCGLSSGSVSTSYYPSWYQQTPGQAPRTLIYNTNTRSSGVPDRFSGSILGNKAALTITGAQADDESDYYCVLYMGSGIWVFGGGTKLTVLG
[1]
  bead assay binding signal: 1.1

B14: anti-SARS-CoV-2 antibody 1444 (antibody, V domains shown)
VH: QVQLVQSGAEVKKPGASVKVSCKASGYTFTAYYMHWVRQAPGQGLEWMGWINPNSDDTNYAQKFQGRVTMTRDTSISTAYMELSRLRSDDTAVYYCAREEGVFTIGDRYFDLWGRGTLVSVSS
VL: QTVVTQEPSFSVSPGGTVTLTCGLSSGSVSTSYYPSWYQQTPGQAPRTLIYNTNTRSSGVPDRFSGSILGNKAALTITGAQADDESDYYCVLYMGSGIWVFGGGTKLTVLG
[10]
  IC50 (ng/mL), immunofluorescence neutralization assay: 232 ng/mL

B15: anti-SARS-CoV-2 antibody 1037 (antibody, V domains shown)
VH: QITLKESGPTLVKPTQTLTLTCTFSGFSLSTSGVGVGWIRQPPGKALEWLALIYWDDDKRYSPSLKSRLTITKDTSKNQVVLTMTNMDPVDTATYYCAHHTITRINDYWGQGTLVTVSS
VL: QSALTQPASVSGSPGQSITISCTATSSDVGAYNYVSWYQQHPGKAPKLMIYDVSKRPSGVSNRFSGSKSGNTASLTISGLQAEDEADYYCSSYTSSSTVFGGGTKLTVLG
[7]
  IC50 WT (µg/mL); pseudovirus neutralization, luciferase: 0.0212 µg/mL

B16: antibody 1037 (antibody, V domains shown)
VH: QITLKESGPTLVKPTQTLTLTCTFSGFSLSTSGVGVGWIRQPPGKALEWLALIYWDDDKRYSPSLKSRLTITKDTSKNQVVLTMTNMDPVDTATYYCAHHTITRINDYWGQGTLVTVSS
VL: QSALTQPASVSGSPGQSITISCTATSSDVGAYNYVSWYQQHPGKAPKLMIYDVSKRPSGVSNRFSGSKSGNTASLTISGLQAEDEADYYCSSYTSSSTVFGGGTKLTVLG
[1]
  bead assay binding signal: 1.2

B17: antibody 1404 (antibody, V domains shown)
VH: QITLKESGPTLVKPTQTLTLTCTFSGFSLSISGVGVGWLRQPPGKALEWLALIYWDDDKRYSPSLKSRLTISKDTSKNQVVLKMTNIDPVDTATYYCAHHSISTIFDHWGQGTLVTVSS
VL: QSALTQPASVSGSPGQSITISCTATSSDVGDYNYVSWYQQHPGKAPKLMIFEVSDRPSGISNRFSGSKSGNTASLTISGLQAEDEADYYCSSYTTSSAVFGGGTKLTVLG
[1]
  bead assay binding signal: 1.1

B18: antibody 455 (antibody, V domains shown)
VH: QVQLVQSGAEVKKPGSSVKVSCKASGGTFSSYAISWVRQAPGQGLEWMGRIIPILGIANYAQKFQGRVTITADKSTSTAYMELSSLRSEDTAVYYCARDSIVVPAAIISGYYYYGMDVWGQGTTVTVSS
VL: QSVLTQPPSVSAAPGQKVTISCSGSSSNIGNNYVSWYQQLPGTAPKLLIYDNNKRPSGIPDRFSGSKSGTSATLGITGLQTGDEADYYCGTWDSSLSAGRVFGGGTKLTVL
[3]
  bead binding signal (fold over isotype control): 61.4
[4]
  bead binding signal (fold over isotype control): 10.2

B19: anti-coronavirus antibody 562 (antibody, V domains shown)
VH: QVQLVESGGGVVQPGRSLRLSCAASGFTFSSYAMHWVRQAPGKGLEWVAVISYDGSNKYYADSVKGRFTISRDNSKNTLYLQMNSLRAEDTAVYYCARASSGGYQGPFDPWGQGTLVTVSS
VL: QSALTQPASVSGSPGQSITISCTGTSSDVGGYNYVSWYQQHPGKAPKLMIYDVSNRPSGVSNRFSGSKSGNTASLTISGLQAEDEADYYCSSYTSSSTLLYVFGTGTKVTVLG
[9]
  binding signal (fold over isotype control): 5.67 fold over isotype control

Like-named read-outs stand apart in the source and are kept apart here.
